A mixed list of measured activities; the numbers were collected in NIAID ChemDB.

Common to all: tests in culture; species: HIV-1; method: RT activity; endpoint: EC50

ECn is the concentration giving n% inhibition of infection, replication or growth. An empty or dashed field is not shown. Neighbouring rows are from separate reports.

compound,strain,changes,cell line,setting,value
Nc1ccn([C@H]2CO[C@@H](CO)S2)c(=O)n1,HXB2D,,MT-4,,3.5 µM
Nc1nc2c(ncn2[C@H]2CO[C@@H](CO)O2)c(=O)[nH]1,IIIB,,H9,,0.06 µM
CC(C)(C)NC(=O)[C@@H]1CN(Cc2cccnc2)CCN1C[C@@H](O)C[C@@H](Cc1ccccc1)C(=O)N[C@H]1c2ccccc2C[C@H]1O,7324-1 NRTI resistant recombinant,RT-M41L D67N T69N K70R T215F K219E,PBMC,,0.0057 µM
Nc1nc(=O)n([C@@H]2CO[C@H](CO)S2)cc1F,HXB2D,,MT-4,,6.6 µM
COC(=O)[C@H](C)NP(=O)(OC[C@@H]1C=C[C@H](n2cc(C)c(=O)[nH]c2=O)O1)Oc1ccc(Br)cc1,4755-5 NRTI resistant recombinant,RT-M41L E44D D67N T69D Y118I M184V L210W T215Y,PBMC,,0.0006 µM
Nc1nc(=O)n([C@@H]2CC[C@H](CO)O2)cc1F,G910-6 AZT-resistant (RT D67N K70R T215Y K219Q),RT-D67N K70R T215Y K219Q,MT-2,,0.95 µM
CCc1nc2ccccn2c1C(=O)c1cccc(O)c1,LAI,,CEM + CEM-SS,,4 µM
COC(=O)[C@H](C)NP(=O)(OC[C@H]1O[C@@H](n2cc(C)c(=O)[nH]c2=O)C[C@@H]1N=[N+]=[N-])Oc1ccccc1,IIIB,,PBMC,,0.1 µM
CC[C@@H]1O[C@@H]([C@]2(C)C[C@@H](C)[C@](O)([C@]3(C)CC[C@@H]([C@@H](O)[C@]4(O)O[C@H](C[C@@]5(O)O[C@@H]([C@@H](C)[C@H](O)C[C@@H]6O[C@H]([C@@H](C)C(=O)O)[C@@H](C)C[C@H]6C)CC[C@@H]5C)[C@@H](C)C[C@H]4C)O3)O2)CC[C@@]1(C)O,IIIB,,U-937,,0.12 µg/mL
Cc1ccnc2c1NC(=O)c1cccnc1N2C1CC1,,K103N,,pseudotyped,>10 µM
Cc1cn([C@H]2C[C@H](N=[N+]=[N-])[C@@H](COP(=O)(O)OC[C@H]3OC(O)[C@H](O)[C@@H](O)[C@@H]3O)O2)c(=O)[nH]c1=O,LAV-Bru,,PBL,7 d,<1 µM
CC(C)(C)NC(=O)[C@@H]1CN(Cc2cccnc2)CCN1C[C@@H](O)C[C@@H](Cc1ccccc1)C(=O)N[C@H]1c2ccccc2C[C@H]1O,MN,,MT-2,,0.007 µM
CC[C@@H](O)[C@]1(C)C[C@H](C)[C@@](O)([C@H]2C[C@H](C)[C@H]([C@]3(C)CC[C@H]([C@@H]4CC[C@@]5(O[C@H]([C@@H](C)[C@@H](OC)[C@H](C)C(=O)O)[C@H](C)[C@@H](OC)[C@H]5C)O4)O3)O2)O1,IIIB,,H9,,1.63 µg/mL
CCCCCCCCCCCCCCCCOP(=O)(OC[C@H]1OC(O)[C@H](O)[C@@H](O)[C@@H]1O)OC[C@H]1O[C@@H](n2cc(C)c(=O)[nH]c2=O)C[C@@H]1N=[N+]=[N-],LAV-Bru,,CEM,22 d,>1 µM
COCCNC(=O)[C@@H](NC(=O)[C@H](Cc1ccc(OC)c(OC)c1OC)C[C@H](O)[C@H](Cc1ccccc1)NC(=O)OC(C)(C)C)C(C)C,LAI,,PBL,,0.017 µM
O=C1CCN(CCOc2ccc(Cl)cc2C(=O)c2cc(Cl)cc(Cl)c2)C(=O)N1,,K103N + Y181C,,pseudotyped,4.5 µM
C=C(C)[C@@H]1CC[C@]2(C(=O)NCCCCCCCC(=O)N[C@@H](CC(C)C)[C@H](O)CC(=O)O)CC[C@]3(C)[C@H](CC[C@@H]4[C@@]5(C)CC[C@H](O)C(C)(C)[C@@H]5CC[C@]43C)[C@@H]12,QZ4734,,PBMC,,<2.65 µM
Cc1cn([C@H]2C[C@H](F)[C@@H](CO)O2)c(=O)[nH]c1=O,IIIB,,MT-4,,0.008 µM
CC[C@@H](C(=O)[C@@H](C)[C@@H](O)[C@H](C)CCc1ccc(C)c(O)c1C(=O)O)[C@H]1O[C@](CC)([C@H]2CC[C@](O)(CC)[C@H](C)O2)C[C@@H]1C,IIIB,,H9,,2.37 µg/mL
CC1(C)[C@@H](O[C@H]2O[C@H](C(=O)O)[C@@H](O)[C@H](O)[C@H]2O[C@@H]2O[C@H](C(=O)O)[C@@H](O)[C@H](O)[C@H]2O)CC[C@]2(C)[C@H]3C(=O)C=C4[C@@H]5C[C@@](C)(C(=O)O)CC[C@]5(C)CC[C@@]4(C)[C@]3(C)CC[C@@H]12,,,MT-4,,48 µM
Nc1nc(N)c2ncn([C@H]3CO[C@@H](CO)O3)c2n1,HE,,MT-4,,0.94 µM
CO[C@@H]1C[C@@H](C[C@H]2CC[C@H](C)[C@H]([C@@H](C)C(=O)O)O2)O[C@]2(O[C@](C)([C@H]3CC[C@@](C)([C@@H]4O[C@@H]([C@H]5O[C@@](O)(CO)[C@H](C)C[C@@H]5C)C[C@@H]4C)O3)C[C@H]2C)[C@@H]1C,IIIB,,U-937,,0.05 µg/mL
Nc1ccn([C@H]2CC[C@@H](CO)O2)c(=O)n1,HXB2D,,MT-4,,0.065 µM
Cc1cn([C@H]2C[C@H](N=[N+]=[N-])[C@@H](CO)O2)c(=O)[nH]c1=O,RF,,CEM + CEM-SS,,0.022 µM
CCc1nc2sccn2c1C(=O)c1ccc(O)cc1,LAI,,CEM + CEM-SS,,>64 µM
Cc1cn([C@H]2C[C@H](N=[N+]=[N-])[C@@H](CO)O2)c(=O)[nH]c1=O,52534-2 NRTI resistant recombinant,RT-M41L T69ins L74V M184V L210W T215Y,PBMC,,0.0548 µM
CCc1nc2ccccn2c1C(=O)c1ccco1,BaL,,MM + M/M,,1 µM
Cc1cn([C@H]2C[C@H](N=[N+]=[N-])[C@@H](CO)O2)c(=O)[nH]c1=O,LAI,,CEM + CEM-SS,,0.006 µM
Cc1cn([C@H]2C[C@H](N=[N+]=[N-])[C@@H](CO)O2)c(=O)[nH]c1=O,LAV-Bru,,CEM,7 d,<0.2 µM
Nc1nc(=O)n([C@H]2CO[C@@H](CO)S2)cc1F,HXB2D(RT-M184I),RT-M184I,CBMC,,3.5 µM
CO[C@H]1O[C@@H](n2ccc(=O)[nH]c2=O)C[C@@H]1N=[N+]=[N-],IIIB,,MT-4,,0.6 µM
Nc1ccn([C@@H]2CS[C@H](CO)O2)c(=O)n1,56252-1 NRTI resistant recombinant,RT-T69K K70G V75I F77L F116Y Q151M M184V,PBMC,,0.007208 µM
CCc1nc2sccn2c1C(=O)c1ccco1,IIIB,,PBMC,,1.5 µM

Repeating the final 4 entries:

compound	strain	changes	cell line	setting	value
Nc1nc(=O)n([C@H]2CO[C@@H](CO)S2)cc1F	HXB2D(RT-M184I)	RT-M184I	CBMC		3.5 µM
CO[C@H]1O[C@@H](n2ccc(=O)[nH]c2=O)C[C@@H]1N=[N+]=[N-]	IIIB		MT-4		0.6 µM
Nc1ccn([C@@H]2CS[C@H](CO)O2)c(=O)n1	56252-1 NRTI resistant recombinant	RT-T69K K70G V75I F77L F116Y Q151M M184V	PBMC		0.007208 µM
CCc1nc2sccn2c1C(=O)c1ccco1	IIIB		PBMC		1.5 µM